Assay results published in ChEMBL document CHEMBL3596145, “Structure and inhibition studies of a type II beta-carbonic anhydrase psCA3 from Pseudomonas aeruginosa” (Bioorg Med Chem, 2015).

The chains behind the UniProt entries cited, without tags or fusion partners. Residues count along the entry.
UniProt Q9HVB9, 1-215: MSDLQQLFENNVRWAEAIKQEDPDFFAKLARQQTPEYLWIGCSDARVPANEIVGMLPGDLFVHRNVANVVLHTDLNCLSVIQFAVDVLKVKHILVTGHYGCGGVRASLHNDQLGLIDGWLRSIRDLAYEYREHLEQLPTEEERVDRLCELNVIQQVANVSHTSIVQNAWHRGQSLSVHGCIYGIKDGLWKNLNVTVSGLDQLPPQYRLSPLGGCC

Molecular target: Carbonic anhydrase (Pseudomonas aeruginosa (strain ATCC 15692 / PAO1 / 1C / PRS 101 / LMG12228), UniProt Q9HVB9)
Assay: Inhibition of Pseudomonas aeruginosa PAO1 type-2 beta-carbonic anhydrase psCA3 expressed in Escherichia coli Tuner BL21 (DE3) cells pre-incubated for 15 mins at pH 8.3 and 293K by CO2 hydration reaction based colorimetric stopped-flow method

O=[As](O)(O)c1ccccc1
Ki: 9 µM
